# Data from ChEMBL document CHEMBL1142270, “Synthesis, thermal stability, antimalarial activity of symmetrically and asymmetrically substituted tetraoxanes” (Bioorg Med Chem Lett, 2008).
# pIC50: −log10 of the molar value.
# Tests used:
# Plasmodium falciparum [1] = test: Antimalarial activity against Plasmodium falciparum D6 in parasite LDH assay; assay type: functional, organism-based
# Plasmodium falciparum [2] = test: Antimalarial activity against Plasmodium falciparum W2 in parasite LDH assay; assay type: functional, organism-based
compound,measurement,setting,value
c1ccc(C2OOC3(CCCC3)OO2)cc1,pIC50,Plasmodium falciparum [1],5.09
same,pIC50,Plasmodium falciparum [2],5.12
